Reference: patent US20070219159A1, “CYCLODEXTRIN COMPOSITIONS AND METHODS OF TREATING VIRAL INFECTIONS” (priority 2002, published 2007)

Measured: SI = CC50/EC50

OC[C@H]1O[C@@H]2O[C@H]3[C@H](O)[C@@H](O)[C@@H](O[C@H]4[C@H](O)[C@@H](O)[C@@H](O[C@H]5[C@H](O)[C@@H](O)[C@@H](O[C@H]6[C@H](O)[C@@H](O)[C@@H](O[C@H]7[C@H](O)[C@@H](O)[C@@H](O[C@H]8[C@H](O)[C@@H](O)[C@@H](O[C@H]1[C@H](O)[C@H]2O)O[C@@H]8CO)O[C@@H]7CO)O[C@@H]6CO)O[C@@H]5CO)O[C@@H]4CO)O[C@@H]3CO [BCD, β-cyclodextrin]
0: Cowpox | Yellow fever | VEE | Vaccinia

methyl-β-cyclodextrin [MBCD]
0: Cowpox | Yellow fever | Flu B | Vaccinia
